This is one part of the list. Env chains of viruses from a treatment-interruption trial, translated from the printed DNA. IC50 / IC80 of two broadly neutralizing antibodies; lower = more sensitive virus; >50 µg/ml means not reached and <0.001 µg/ml is below the lowest dose. No active / inactive call.
Assays:
antibody 10-1074 [1] = experiment: neutralization IC50; higher = virus less sensitive to the antibody
Protocol: (§1)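 Pseudovirus bearing the Env chain mixed with antibody, from 50 µg/ml in fivefold dilutions, on TZM-bl reporter cells, in duplicate.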

antibody 3BNC117 [2] = experiment: as above
Protocol: as §1

antibody 10-1074 [3] = experiment: neutralization IC80; higher = virus less sensitive to the antibody
Protocol: as §1

antibody 3BNC117 [4] = experiment: as above
Protocol: as §1

B1: HIV-1 Env, rebound clone, placebo arm (protein)
chain: MKVRGTKMNWQHLWWRWGTMLLGMLMICKATEEKWVTVYYGVPVWKEATTTLFCASDAKAYEKEAHNVWATHACVPTDPSPQEVVLENVTENFNMWKNNMVEQMHEDIISLWDQSLKPCVKLTPLCVTLNCTDYTNSNSTNHTNSNSSSPTPTAGGEIKNCSFNITTNIRDKIKKEHALFYSLDVVQIDINDNTSYRLISCNTSVITQACPKTTFEPIPIYYCAPAGFAILKCNNKTFDGKGPCKNVSTVQCTHGIRPVVSTQLLLNGSLAEKEIVIRSDNFSDNTKNIIVQLKDPVVINCTRPNNNTRKGIHIGPGRAFYATGKVIGDIRQAYCNISKEEWNKTLGQIVKKLGAQFGNKTTMIFNQSSGGNPEIVTHSFNCGGEFFYCNTSALFNSTWSSNDGNGTWNKTNSTKTNSTEIILQCRIKQIVNMWQEVGKAMYAPPIKGPIRCSSNITGLILTRDGGNNTGNNSETFRPAGGNMRDNWRSELYKYKIVKIEPLGIAPTKAKRRTVQREKRAVTMGAMFLGFLGAAGSTMGAASLTLTVQARQLLSGIVQQQNNLLRAIEAQQHLLQLTVWGIKQLQARVLAVKRYLADQRFLGIWGCSGKLICTTTVPWNNSWSNKSLDSIWNNMTWMQWEKEIENYTGEIYNLIEQAQNQQEQNERELLELDKWASLWNWFDISNWLWYIKIFIMIVGGLIGLRIVFAVLSIVNRVRQGYSPLSLQTLLPTPRGPDRPEGIEGEGGERDRDTSIRLVDGFLALFWDDLRNLCLFSYRHLRDLLLIAARIVELLGLRGWEILKYLWNLLLYWSQELKNSAISLLDATAIAVAEGTDRIIEAVRRFCRGVLHIPRRIRQGFERALQ
Q: For B1, which “neutralization IC50” value (antibody 10-1074 [1]) is on record?
A: The value was 0.02 µg/mL.

Q: What about the “neutralization IC50” value (antibody 3BNC117 [2]) of the same binder?
A: Its value is 0.05 µg/mL.

Q: What about the “neutralization IC80” value (antibody 10-1074 [3]) of the same binder?
A: The value was 0.104 µg/mL.

Q: And the “neutralization IC80” value (antibody 3BNC117 [4])?
A: The value was 0.28 µg/mL.

B2: HIV-1 Env, rebound clone, placebo arm (protein)
chain: MKVRGTKMNWQHLWWRWGTMLLGMLMICKATEEKWVTVYYGVPVWKEATTTLFCASDAKAYEKEAHNVWATHACVPTDPSPQEVVLENVTENFNMWKNNMVEQMHEDIISLWDQSLKPCVKLTPLCVTLNCTDYTNSNSTNHTNSNSSSPTPTAGGEIKNCSFNITTNIRDKIKKEHALFYSLDVVQIDINDNTSYRLISCNTSVITQACPKTTFEPIPIYYCAPAGFAILKCNNKTFDGKGPCKNVSTVQCTHGIRPVVSTQLLLNGSLAEKEIVIRSDNFSDNTKNIIVQLKDPVVINCTRPNNNTRKGIHIGPGRAFYATGKVIGDIRQAYCNISKEEWNKTLGQIVKKLGAQFGNKTTMIFNQSSGGDPEIVTHSFNCGGEFFYCNTSALFNSTWSSNDGNGTWNKTNSTETNSTEIILQCRIKQIVNMWQEVGKAMYAPPIKGPIRCSSNITGLILTRDGGNNTGNNSETFRPAGGNMRDNWRSELYKYKIVKIEPLGIAPTKAKRRTVQREKRAVTMGAMFLGFLGAAGSTMGAASLTLTVQARQLLSGIVQQQNNLLRAIEAQQHLLQLTVWGIKQLQARVLAVERYLADQRFLGIWGCSGKLICTTTVPWNNSWSNKSLDSIWNNMTWMQWEKEIENYTGEIYNLIEQAQNQQEQNERELLELDKWASLWNWFDISNWLWYIKIFIMIVGGLIGLRIVFAVLFIVNRVRQGYSPLSLQTLLPTPRGPDRPEGIEGEGGERDRDTSIRLVDGFLALFWDDLRNLCLFSYRHLRDLLLIAARIVELLGLRGWEILKYLWNLLLYWSQELKNSAISLLDATAIAVAEGTDRIIEAVRRFCRGVLHIPRRIRQGFERALQ
Q: What does the source list for B2?
A: neutralization IC50 (antibody 10-1074 [1]): 0.003 µg/mL; neutralization IC50 (antibody 3BNC117 [2]): 0.116 µg/mL; neutralization IC80 (antibody 10-1074 [3]): 0.023 µg/mL; neutralization IC80 (antibody 3BNC117 [4]): 0.407 µg/mL

B3: HIV-1 Env, rebound clone, placebo arm (protein)
chain: MKVRGTKMNWQHLWWRWGTMLLGMLMICKATEEKWVTVYYGVPVWKEATTTLFCASDAKAYEKEAHNVWATHACVPTDPSPQEVVLENVTENFNMWKNNMVEQMHEDIISLWDQSLKPCVKLTPLCVTLNCTDYTNSNSTNHTNSNSSSPTPTAGGEIKNCSFNITTNIRDKIKKEHALFYSLDVVQIDINDNTSYRLISCNTSVITQACPKTTFEPIPIYYCAPAGFAILKCNNKTFDGKGPCKNVSTVQCTHGIRPVVSTQLLLNGSLAEKEIVIRSDNFSDNTKNIIVQLKDPVVINCTRPNNNTRKGIHIGPGRAFYATGKVIGDIRQAYCNISKEKWNKTLGQIVKKLGAQFGNKTTMIFNQSSGGDPEIVTHSFNCGGEFFYCNTSALFNSTWSSNDGNGTWNKTNSTETNSTEIILQCRIKQIVNMWQEVGKAMYAPPIKGPIRCSSNITGLILTRDGGNNTGNNSETFRPAGGNMRDNWRSELYKYKIVKIEPLGIAPTKAKRRTVQREKRAVTMGAMFLGFLGAAGSTMGAASLTLTVQARQLLSGIVQQQNNLLRAIEAQQHLLQLTVWGIKQLQARVLAVERYLADQRFLGIWGCSGKLICTTTVPWNNSWSNKSLDSIWNNMTWMQWEKEIENYTGEIYNLIEQAQNQQEQNERELLELDKWASLWNWFDISNWLWYIKIFIMIVGGLIGLRIVFAVLSIVNRVRQGYSPLSLQTLLPTPRGPDRPEGIEGEGGERDRDTSIRLVDGFLALFWDDLRNLCLFSYRHLRDLLLIAARIVELLGLRGWEILKYLWNLLLYWSQELKNSAISLLDATAIAVAEGTDRIIEAVRRFCRGVLHIPRRIRQGFERALQ
Q: Which “neutralization IC50” value (antibody 10-1074 [1]) does the source give for B3 here?
A: Its value is 0.005 µg/mL.

Q: What about the “neutralization IC50” value (antibody 3BNC117 [2]) of the same binder?
A: Its value is 0.106 µg/mL.

Q: What about the “neutralization IC80” value (antibody 10-1074 [3]) of the same binder?
A: The value was 0.023 µg/mL.

Q: What about the “neutralization IC80” value (antibody 3BNC117 [4]) of the same binder?
A: The value was 0.461 µg/mL.

B4: HIV-1 Env, rebound clone, placebo arm (protein)
chain: MKVRGTKMNWQHLWWRWGTMLLGMLMICKATEEKWVTVYYGVPVWKEATTTLFCASDAKAYEKEAHNVWATHACVPTDPSPQEVVLENVTENFNMWKNNMVEQMHEDIISLWDQSLKPCVKLTPLCVTLNCTDYTNSNSTNHTNSNSSSPTPTAGGEIKNCSFNITTNIRDKIKKEHALFYSLDVVQIDINDNTSYRLISCNTSVITQACPKTTFEPIPIYYCAPAGFAILKCNNKTFDGKGPCKNVSTVQCTHGIRPVVSTQLLLNGSLAEKEIVIRSDNFSDNTKNIIVQLKDPVVINCTRPNNNTRKGIHIGPGRAFYATGKVIGDIRQAYCNISKEEWNKTLGQIVKKLGAQFGNKTTMIFNQSSGGDPEIVTHSFNCGGEFFYCNTSALFNSTWSSNDGNGTWNKTNSTETNSTEIILQCRIKQIVNMWQEVGKAMYAPPIKGPIRCSSNITGLILTRDGGNNTGNNSETFRPAGGNMRDNWRSELYKYKIVKIEPLGIAPTKAKRRTVQREKRAVTMGTMFLGFLGAAGSTMGAASLTLTVQARQLLSGIVQQQNNLLRAIEAQQHLLQLTVWGIKQLQARVLAVERYLADQRFLGIWGCSGKLICTTTVPWNNSWSNKSLDSIWNNMTWMQWEKEIENYTGEIYNLIEQAQNQQEQNERELLELDKWASLWNWFDISNWLWYIKIFIMIVGGLIGLRIVFAVLSIVNRVRQGYSPLSLQTLLPTPRGPDRPEGIEGEGGERDRDTSIRLVDGFLALFWDDLRNLCLFSYRHLRDLLLIAARIVELLGLRGWEILKYLWNLLLYWSQELKNSAISLLDATAIAVAEGTDRIIEAVRRFCRGVLHIPRRIRQGFERALQ
Q: With B4 as the binder, how does the “neutralization IC50” value (antibody 10-1074 [1]) read?
A: Its value is 0.004 µg/mL.

Q: What about the “neutralization IC50” value (antibody 3BNC117 [2]) of the same binder?
A: The value was 0.121 µg/mL.

Q: And the “neutralization IC80” value (antibody 10-1074 [3])?
A: The value was 0.027 µg/mL.

Q: What about the “neutralization IC80” value (antibody 3BNC117 [4]) of the same binder?
A: The value was 0.335 µg/mL.

B5: HIV-1 Env, rebound clone, placebo arm (protein)
chain: MKVRGTKMNWQHLWWRWGTMLLGMLMICKATEEKWVTVYYGVPVWKEATTTLFCASDAKAYEKEAHNVWATHACVPTDPSPQEVVLENVTENFNMWKNNMVEQMHEDIISLWDQSLKPCVKLTPLCVTLNCTDYTNSNSTNHTNSNSSSPTPTAGGEIKNCSFNITTNIRDKIKKEHALFYSLDVVQIDINDNTSYRLISCNTSVITQACPKTTFEPIPIYYCAPAGFAILKCNNKTFDGKGPCKNVSTVQCTHGIRPVVSTQLLLNGSLAEKEIVIRSDNFSDNTKNIIVQLKDPVVINCTRPNNNTRKGIHIGPGRAFYATGKVIGDIRQAYCNISKEEWNKTLGQIVKKLGAQFGNKTTMIFNQSSGGDPEIVTHSFNCGGEFFYCNTSALFNSTWSSNDGNGTWNKTNSTETNSTEIILQCRIKQIVNMWQEVGKAMYAPPIKGPIRCSSNITGLILTRDGGNNTGNNSETFRPAGGNMRDNWRSELYKYKIVKIEPLGIAPTKAKRRTVQREKRAVTMGAMFLGFLGTAGSTMGAASLTLTVQARQLLSGIVQQQNNLLRAIEAQQHLLQLTVWGIKQLQARVLAVERYLADQRFLGIWGCSGKLICTTTVPWNNSWSNKSLDSIWNNMTWMQWEKEIENYTGEIYNLIEQAQNQQEQNERELLELDKWASLWNWFDISNWLWYIKIFIMIVGGLIGLRIVFAVLSIVNRVRQGYSPLSLQTLLPTPRGPDRPEGIEGEGGERDRDTSIRLVDGFLALFWDDLRNLCLFSYRHLRDLLLIAARIVELLGLRGWEILKYLWNLLLYWSQELKNSAISLLDATAIAVAEGTDRIIEAVRRFCRGVLHIPRRIRQGFERALQ
Q: Which results are given for B5?
A: neutralization IC50 (antibody 10-1074 [1]): 0.006 µg/mL; neutralization IC50 (antibody 3BNC117 [2]): 0.102 µg/mL; neutralization IC80 (antibody 10-1074 [3]): 0.032 µg/mL; neutralization IC80 (antibody 3BNC117 [4]): 0.892 µg/mL

B6: HIV-1 Env, rebound clone, placebo arm (protein)
chain: MKVRGTKMNWQHLWWRWGTMLLGMLMICKATEEKWVTVYYGVPVWKEATTTLFCASDAKAYEKEAHNVWATHACVPTDPSPQEVVLENVTENFNMWKNNMVEQMHEDIISLWDQSLKPCVKLTPLCVTLNCTDYTNSNSTNHTNSNSSSPTPTAGGEIKNCSFNITTNIRDKIKKEHALFYSLDVVQIDINDNTSYRLISCNTSVITQACPKTTFEPIPIYYCAPAGFAILKCNNKTFDGKGPCKNVSTVQCTHGIRPVVSTQLLLNGSLAEKEIVIRSDNFSDNTKNIIVQLKDPVVINCTRPNNNTRKGIHIGPGRAFYATGKVIGDIRQAYCNISKEEWNKTLGQIVKKLGAQFGNKTTMIFNQSSGGDPEIVTHSFNCGGEFFYCNTSALFNSTWSSNDGNGTWNKTNSTETNSTEIILQCRIKQIVNMWQEVGKAMYAPPIKGPIRCSSNITGLILTRDGGNNTGNNSETFRPAGGNMRDNWRSELYKYKIVKIEPLGIAPTKAKRRTVQREKRAVTMGAMFLGFLGVAGSTMGAASLTLTVQARQLLSGIVQQQNNLLRAIEAQQHLLQLTVWGIKQLQARVLAVERYLADQRFLGIWGCSGKLICTTTVPWNNSWSNKSLDSIWNNMTWMQWEKEIENYTGEIYNLIEQAQNQQEQNERELLELDKWASLWNWFDISNWLWYIKIFIMIVGGLIGLRIVFAVLSIVNRVRQGYSPLSLQTLLPTPRGPDRPEGIEGEGGERDRDTSIRLVDGFLALFWDDLRNLCLFSYRHLRDLLLIAARIVELLGLRGWEILKYLWNLLLYWSQELKNSAISLLDATAIAVAEGTDRIIEAVRRFCRGVLHIPRRIRQGFERALQ
Q: What does the source list for B6?
A: neutralization IC50 (antibody 10-1074 [1]): 0.016 µg/mL; neutralization IC50 (antibody 3BNC117 [2]): 0.106 µg/mL; neutralization IC80 (antibody 10-1074 [3]): 0.079 µg/mL; neutralization IC80 (antibody 3BNC117 [4]): 0.546 µg/mL
